In article PMC4686829, “Comprehensive analysis of antibody recognition in convalescent humans from highly pathogenic avian influenza H5N1 infection” (2015) one finds IC50 of neutralisation of pseudovirus bearing this HA data, which are given here for three substances.

The target of this experiment is HA glycoprotein of A/Beijing/01/2003 (H5N1, clade 7) (influenza A virus A/Beijing/01/2003 (H5N1)).
Consider “100F4, full-length human IgG1 (antibody)”, for which the IC50 of neutralisation of pseudovirus bearing this HA turned out to be 37 ng/mL.

With 65C6, full-length human IgG1 (antibody), the IC50 of neutralisation of pseudovirus bearing this HA turned out to be 6 ng/mL.

“AVFluIgG03, full-length human IgG1 (antibody)” came in with an IC50 of neutralisation of pseudovirus bearing this HA of 3 ng/mL.
